Compound potency records, mixed from different reports. Data source: NIAID ChemDB in PubChem.

Common to all: tests in culture; organism: Candida albicans; read by: broth dilution; endpoint: MIC100

Rows are shuffled and stem from different studies. A number after MIC or MFC names an inhibition level or a share of isolates. An empty or dashed field is not shown.

SMILES | strain or isolate | value
O=C(Nc1ccc(Cc2nc3ccccc3s2)cc1)c1ccc([N+](=O)[O-])cc1 | ATCC 10231 | 25 µg/mL
CC1(C)CC[C@@H]2C[C@H]1C2(C)C | ATCC 14053 | 155 µg/mL
C[C@H]1[C@H](O)[C@@H](C)/C=C/C=C/C=C/C=C/C=C/C=C/C=C/[C@H](O[C@@H]2O[C@H](C)[C@@H](O)[C@H](N)[C@@H]2O)C[C@@H]2O[C@](O)(C[C@@H](O)C[C@@H](O)CC[C@H](O)[C@@H](O)C[C@@H](O)CC(=O)O[C@H]1C)C[C@H](O)[C@H]2C(=O)O | ATCC 10231 | 0.5 µM
C[C@H]1[C@H](O)[C@@H](C)/C=C/C=C/C=C/C=C/C=C/C=C/C=C/[C@H](O[C@@H]2O[C@H](C)[C@@H](O)[C@H](N)[C@@H]2O)C[C@@H]2O[C@](O)(C[C@@H](O)C[C@@H](O)CC[C@H](O)[C@@H](O)C[C@@H](O)CC(=O)O[C@H]1C)C[C@H](O)[C@H]2C(=O)O | ATCC 90028 | 0.5 µg/mL
Cc1ccc2c(=O)c3c(N)[nH]c(=O)nc3oc2c1 | MTCC 227 | 250 µg/mL
CCC(C)Oc1ccc(C(=O)Nc2ccc(-c3nc4ccccc4s3)cc2)cc1 | ATCC 10231 | 25 µg/mL
C[C@H]1[C@H](O)[C@@H](C)/C=C/C=C/C=C/C=C/C=C/C=C/C=C/[C@H](O[C@@H]2O[C@H](C)[C@@H](O)[C@H](N)[C@@H]2O)C[C@@H]2O[C@](O)(C[C@@H](O)C[C@@H](O)CC[C@H](O)[C@@H](O)C[C@@H](O)CC(=O)O[C@H]1C)C[C@H](O)[C@H]2C(=O)O | MTCC 16 | 16 µg/mL
COc1ccc(/C=N\O)cc1 |  | >6620 µM
O=C(CCc1ccccc1)Nc1ccc(Cc2nc3ccccc3s2)cc1 | ATCC 10231 | 25 µg/mL
Nc1[nH]c(=O)ncc1F | ATCC 10239 | 7.8 µg/mL
O=C(Nc1ccc(Cc2nc3ccccc3s2)cc1)c1ccc(Cl)cc1 | ATCC 10231 | 25 µg/mL
C[C@H]1[C@H](O)[C@@H](C)/C=C/C=C/C=C/C=C/C=C/C=C/C=C/[C@H](O[C@@H]2O[C@H](C)[C@@H](O)[C@H](N)[C@@H]2O)C[C@@H]2O[C@](O)(C[C@@H](O)C[C@@H](O)CC[C@H](O)[C@@H](O)C[C@@H](O)CC(=O)O[C@H]1C)C[C@H](O)[C@H]2C(=O)O | ATCC 10231 | 1 µg/mL
Nc1nc(N)c2c(=O)c3cc(Br)cc(Br)c3oc2n1 | MTCC 227 | >1000 µg/mL
O=C(O[C@@H]1COC(=O)c2cc(O)c(O)c(O)c2-c2c(cc(O)c(O)c2O)C(=O)OC1C1OC(=O)c2cc(O)c(O)c(O)c2-c2c(O)c(O)c(O)c3c2C(=O)OC1[C@H]3O)c1cc(O)c(O)c(O)c1 | SC5314 | >580 µg/mL
O=C(Nc1ccc(Cc2nc3ccccc3s2)cc1)c1ccccc1 | ATCC 10231 | 25 µg/mL
Nc1nc(N)c2c(=O)c3cc(Cl)ccc3oc2n1 | MTCC 227 | 500 µg/mL

2 of the rows above, restated:

SMILES,strain or isolate,value
CC1(C)CC[C@@H]2C[C@H]1C2(C)C,ATCC 14053,155 µg/mL
O=C(Nc1ccc(Cc2nc3ccccc3s2)cc1)c1ccccc1,ATCC 10231,25 µg/mL